## Structure probing of HIV-1 leader RNA with DMS

Source: Ye et al. 2022 (doi:10.1038/s41594-022-00746-2), supplementary data.

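Mutant RNA libraries with 1G, 2G or 3G starts, with or without cap, were folded at 37 °C for 30 min. Monomer and dimer bands were cut from native gels after folding in high salt (300 mM KCl, 5 mM MgCl2) or low salt (40 mM KCl, 0.1 mM MgCl2). Gel slices were treated with 170 mM dimethyl sulfate for 15 min at 37 °C and read by mutational profiling against an ethanol control.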

Sequence of the HIV-1 NL4-3 5' RNA, positions 1 to 437, as numbered in the source:
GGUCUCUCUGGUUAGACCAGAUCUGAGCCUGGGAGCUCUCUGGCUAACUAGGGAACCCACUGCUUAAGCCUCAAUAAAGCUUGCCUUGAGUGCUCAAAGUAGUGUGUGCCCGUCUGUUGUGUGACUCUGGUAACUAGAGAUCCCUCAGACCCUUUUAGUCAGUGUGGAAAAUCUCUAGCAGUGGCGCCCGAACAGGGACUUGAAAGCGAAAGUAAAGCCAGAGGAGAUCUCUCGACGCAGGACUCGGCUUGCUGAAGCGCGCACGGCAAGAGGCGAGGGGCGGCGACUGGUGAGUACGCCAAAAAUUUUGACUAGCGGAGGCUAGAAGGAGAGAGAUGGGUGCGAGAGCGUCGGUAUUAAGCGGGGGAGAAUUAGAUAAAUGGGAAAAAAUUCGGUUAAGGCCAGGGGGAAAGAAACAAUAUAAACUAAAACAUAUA

Values are winsor-normalised DMS reactivities of A and C; higher means more reactive, usually unpaired.
One numbering serves 1G, 2G and 3G.
A position is written with its base.

| # | position | domain | 1G uncapped high-salt dimer | 3G uncapped low-salt dimer | 1G uncapped high-salt monomer | 3G capped low-salt monomer |
|---|---|---|---|---|---|---|
| 1 | A198 | PBS | 0.61 | 0.53 | 0.60 | 0.53 |
| 2 | A399 | none | 0.40 | 0.21 | 0.33 | 0.18 |
| 3 | C85 | PolyA | 0.43 | 0.29 | 0.33 | 0.10 |
| 4 | A34 | TAR | 1.00 | 1.12 | 1.14 | 1.10 |
| 5 | A437 | none | 0.04 | 0.05 | 0.04 | 0.02 |
| 6 | A171 | PBS | 0.47 | 0.40 | 0.48 | 0.41 |
| 7 | C56 | TAR | 0.19 | 0.05 | 0.21 | 0.02 |
| 8 | A50 | TAR | 0.26 | 0.15 | 0.20 | 0.10 |
| 9 | A368 | none | 0.77 | 0.92 | 0.98 | 0.99 |
| 10 | C260 | SL1 | 0.34 | 0.40 | 0.50 | 0.34 |
| 11 | A324 | SL3 | 0.07 | 0.08 | 0.12 | 0.10 |
| 12 | C23 | TAR | 1.13 | 1.43 | 1.35 | 1.38 |
| 13 | A169 | PBS | 0.70 | 0.78 | 0.72 | 0.75 |
| 14 | A293 | SL2 | 0.98 | 0.83 | 0.86 | 0.71 |
| 15 | A305 | none | 0.70 | 0.67 | 0.73 | 0.74 |
| 16 | C316 | SL3 | 0.05 | 0.07 | 0.11 | 0.12 |
| 17 | A411 | none | 0.78 | 0.93 | 0.78 | 0.91 |
| 18 | A326 | none | 0.92 | 0.88 | 0.84 | 0.86 |
| 19 | A98 | PolyA | 0.29 | 0.60 | 0.39 | 0.60 |
| 20 | A389 | none | 0.21 | 0.15 | 0.17 | 0.11 |
| 21 | C343 | AUG | 0.31 | 0.31 | 0.35 | 0.56 |
| 22 | A374 | none | 0.51 | 0.39 | 0.45 | 0.41 |
| 23 | C229 | CU | 0.14 | 0.13 | 0.24 | 0.35 |
| 24 | A336 | AUG | 0.95 | 0.53 | 0.94 | 0.70 |
| 25 | C40 | TAR | 0.04 | 0.05 | 0.04 | 0.02 |
| 26 | C127 | PAS | 0.04 | 0.05 | 0.04 | 0.02 |
| 27 | C189 | PBS | 0.14 | 0.09 | 0.11 | 0.07 |
| 28 | A296 | SL2 | 0.57 | 0.48 | 0.59 | 0.58 |
| 29 | A138 | PBS | 0.11 | 0.14 | 0.12 | 0.11 |
| 30 | A388 | none | 0.10 | 0.09 | 0.08 | 0.06 |
| 31 | C152 | PBS | 0.89 | 0.84 | 0.92 | 0.85 |
| 32 | C238 | none | 0.43 | 0.51 | 0.71 | 0.85 |
| 33 | C160 | PBS | 0.05 | 0.09 | 0.06 | 0.05 |
| 34 | C349 | none | 0.32 | 0.24 | 0.36 | 0.26 |
| 35 | A416 | none | 0.45 | 0.47 | 0.42 | 0.45 |
| 36 | A170 | PBS | 0.54 | 0.49 | 0.56 | 0.50 |
| 37 | A180 | PBS | 0.58 | 0.67 | 0.56 | 0.63 |
| 38 | A161 | PBS | 0.47 | 0.47 | 0.49 | 0.44 |